Target: ClpC1-WT (Mycobacterium tuberculosis, UniProt P9WPC9)

Sequences of proteins named here, by UniProt entry; tags and fusion partners are left off.
UniProt P9WPC9, whole entry: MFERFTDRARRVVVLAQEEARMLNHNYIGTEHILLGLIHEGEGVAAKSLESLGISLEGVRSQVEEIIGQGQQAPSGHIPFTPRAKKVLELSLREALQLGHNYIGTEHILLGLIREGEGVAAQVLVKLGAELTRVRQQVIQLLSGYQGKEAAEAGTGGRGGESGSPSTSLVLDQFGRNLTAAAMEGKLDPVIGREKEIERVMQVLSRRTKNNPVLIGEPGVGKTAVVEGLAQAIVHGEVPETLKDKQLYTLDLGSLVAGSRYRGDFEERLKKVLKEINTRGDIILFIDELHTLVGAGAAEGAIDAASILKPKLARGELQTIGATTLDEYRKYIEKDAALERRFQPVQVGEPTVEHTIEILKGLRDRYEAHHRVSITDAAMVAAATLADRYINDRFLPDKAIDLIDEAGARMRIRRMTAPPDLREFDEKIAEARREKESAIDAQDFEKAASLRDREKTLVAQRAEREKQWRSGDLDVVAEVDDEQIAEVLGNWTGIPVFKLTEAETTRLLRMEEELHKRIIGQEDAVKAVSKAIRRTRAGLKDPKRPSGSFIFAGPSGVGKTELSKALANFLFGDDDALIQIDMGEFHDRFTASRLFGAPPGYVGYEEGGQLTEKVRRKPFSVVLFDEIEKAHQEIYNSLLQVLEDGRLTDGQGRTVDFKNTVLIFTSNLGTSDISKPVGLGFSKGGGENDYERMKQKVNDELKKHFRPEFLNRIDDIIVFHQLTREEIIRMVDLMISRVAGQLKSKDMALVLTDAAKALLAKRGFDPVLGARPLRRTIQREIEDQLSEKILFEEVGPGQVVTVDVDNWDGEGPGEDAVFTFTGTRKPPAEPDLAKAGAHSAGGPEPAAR

casein
increase of ClpC1 ATPase activity by casein together with ClpP1P2: fourfold
